Drawing on article PMC3499629 (Journal of medicinal chemistry, 2012), this text covers Kd for 2 molecules.

In one data set the target is NC' (Human immunodeficiency virus type 1 group M subtype B, UniProt P12493). Particulars: read-out: Kd of FSL-2 - NC' interaction; mean ± s.e.m.
The next data set deals with NC' (GST-p2-NC) (HIV-1 NL4-3, UniProt P12493 364-432). The data set can be described thus: fluorescence polarization.

Regarding “3'-6-carboxyfluorescein-labeled SL-2 DNA [FSL-2]”, the dissociation constant (Kd) at NC' came out at 0.324 ± 0.006 µM.
GGGGCGACTGGTGAGTACGCCCC (structured_DNA) [FSL-2 (SL-2 DNA tracer)] yielded a Kd with NC' (GST-p2-NC) of 0.324 µM.

The term Kd denotes a measure of binding affinity in units of concentration.
